Values quoted from earlier work as cited in patent US7846722B2 (priority 2001, dated 2010).

Sequences of proteins named here, by UniProt entry; tags and fusion partners are left off. A change or cut given only in a name is not applied to a line headed by its entry.
UniProt P0DPI0: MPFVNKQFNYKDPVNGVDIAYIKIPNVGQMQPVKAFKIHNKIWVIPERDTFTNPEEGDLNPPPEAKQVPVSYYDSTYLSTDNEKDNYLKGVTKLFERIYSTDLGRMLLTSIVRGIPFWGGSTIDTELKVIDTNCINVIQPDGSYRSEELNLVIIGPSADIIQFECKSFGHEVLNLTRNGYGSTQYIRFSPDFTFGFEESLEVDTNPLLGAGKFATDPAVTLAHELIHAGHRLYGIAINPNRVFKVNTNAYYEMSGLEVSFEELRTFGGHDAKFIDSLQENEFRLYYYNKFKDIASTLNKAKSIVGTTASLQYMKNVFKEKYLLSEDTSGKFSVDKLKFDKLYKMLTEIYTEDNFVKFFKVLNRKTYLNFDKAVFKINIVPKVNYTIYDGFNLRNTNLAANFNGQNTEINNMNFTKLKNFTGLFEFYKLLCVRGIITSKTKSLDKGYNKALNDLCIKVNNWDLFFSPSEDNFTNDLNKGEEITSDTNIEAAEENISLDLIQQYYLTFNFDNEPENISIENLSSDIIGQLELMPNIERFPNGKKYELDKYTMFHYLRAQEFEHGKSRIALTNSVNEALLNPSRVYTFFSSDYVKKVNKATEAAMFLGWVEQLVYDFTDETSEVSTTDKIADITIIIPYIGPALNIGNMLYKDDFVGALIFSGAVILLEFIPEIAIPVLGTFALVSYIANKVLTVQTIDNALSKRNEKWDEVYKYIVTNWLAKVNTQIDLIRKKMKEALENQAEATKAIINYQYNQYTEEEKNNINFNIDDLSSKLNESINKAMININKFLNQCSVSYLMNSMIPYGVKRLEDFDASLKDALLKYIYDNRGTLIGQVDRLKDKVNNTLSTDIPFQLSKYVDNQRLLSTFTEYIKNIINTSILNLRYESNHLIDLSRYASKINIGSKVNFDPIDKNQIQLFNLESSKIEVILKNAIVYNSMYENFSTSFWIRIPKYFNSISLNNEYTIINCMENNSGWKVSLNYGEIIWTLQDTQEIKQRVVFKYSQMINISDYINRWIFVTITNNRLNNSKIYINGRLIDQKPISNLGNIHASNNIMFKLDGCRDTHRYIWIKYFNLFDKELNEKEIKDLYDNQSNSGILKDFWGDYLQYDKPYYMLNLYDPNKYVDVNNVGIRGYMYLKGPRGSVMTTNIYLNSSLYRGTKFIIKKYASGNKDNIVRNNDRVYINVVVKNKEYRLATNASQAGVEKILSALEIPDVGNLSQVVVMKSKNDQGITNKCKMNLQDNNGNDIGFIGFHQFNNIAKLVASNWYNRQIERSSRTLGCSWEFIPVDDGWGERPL

Biological target: BoNT/A (Clostridium botulinum, UniProt P0DPI0)
Settings: Initial hydrolysis rates relative to peptide [1-17] (residues 187 to 203 of human SNAP-25); peptide concentrations 1.0 mM; cited from earlier work

Sequence	Relative Rate
SNKTRIDEAAQRATKML	0.06
SNKTRIDEANQRATK	0.03
